Pooled drug test results. Numbers come from NIAID ChemDB, via PubChem.

All rows: tests on isolated targets; species: HIV-1; protein: Protease

ICn is the concentration giving n% inhibition. Conditions beyond the fields shown may differ between rows. Blank or dashed fields: not listed here.

| compound | conditions | read-out | changes | strain or isolate | method | value |
|---|---|---|---|---|---|---|
| CCCCCCCCCCCC(=O)O[C@H]1CC[C@]2(C)[C@H]3CC=C4[C@@H]5CC(C)(C)CC[C@]5(C(=O)OCc5ccccc5)CC[C@@]4(C)[C@]3(C)CC[C@H]2C1(C)C |  | IC50 |  |  | FRET | >1200 µg/mL |
| Cc1cc(C)c(S(=O)(=O)NC(N)=NCCC[C@H](NC(=O)OCC2c3ccccc3-c3ccccc32)C(=O)O)c(C)c1 |  | IC50 |  |  | HPLC | 70 µM |
| CN(C(=O)[C@H](Cc1cccc2ccccc12)NC(=O)CN1CCOCC1)[C@@H](Cc1nccs1)C(=O)N[C@@H](Cc1ccccc1)[C@H](O)C(=O)N1CSC[C@H]1C(=O)NC(C)(C)C |  | IC50 |  |  | fluorescence | 0.0071 µM |
| CC(C)CN(C[C@@H](O)[C@H](Cc1ccccc1)NC(=O)O[C@H]1CO[C@H]2OCC[C@H]21)S(=O)(=O)c1ccc2[nH]c(O)c(C=NCc3nc4ccccc4[nH]3)c2c1 |  | Ki |  | HXB2 | substrate cleavage | <0.0001 µM |
| CCC(C)(C)NC(=O)[C@@H]1CCCN1C(=O)[C@@H](O)[C@H](Cc1ccccc1)NC(=O)[C@H](CC(N)=O)NC(=O)OCc1ccccc1 |  | IC50 |  |  |  | <5 µM |
| NC(N)=NCCC[C@H](NC(=O)OCC1c2ccccc2-c2ccccc21)C(=O)O |  | IC50 |  |  | HPLC | 580 µM |
| Cc1cccc(C)c1OCC(=O)N[C@@H](Cc1ccccc1)[C@H](O)CN1CCC[C@H]1C(=O)NC(=O)COc1ccccc1 |  | IC50 |  |  | fluorescence | 0.0847 µM |
| CC(C)[C@H](NC(=O)[C@H](Cc1cccc2ccccc12)NC(=O)CN1CCOCC1)C(=O)N[C@@H](Cc1ccccc1)[C@H](O)C(=O)N1CSC[C@H]1C(=O)NC(C)(C)C |  | IC50 |  |  | fluorescence | 0.001 µM |
| O=C(c1ccco1)N1C[C@@H](O)[C@@H](Cc2ccccc2)N(Cc2ccc(O)cc2)C(=O)N1Cc1ccc(O)cc1 |  | IC50 |  |  | fluorescence | 0.0015 µM |
| Cc1cccc(C)c1OCC(=O)NC(=O)[C@@H]1CCCN1C[C@@H](O)[C@H](Cc1ccccc1)NC(=O)COc1c(C)cccc1C |  | IC50 |  |  | fluorescence | 0.0096 µM |
| Cc1cccc(C)c1SCC(=O)N[C@@H](Cc1ccccc1)[C@@H](O)C[C@H](Cc1ccccc1)NC(=O)[C@H](C(C)C)N1CCCNC1=O |  | IC50 |  |  |  | <0.0005 µM |
| Cc1cc(C)c(OCC(=O)N[C@@H](Cc2ccccc2)C[C@H](O)[C@H](Cc2ccccc2)NC(=O)O[C@H]2CO[C@H]3OCC[C@H]32)c(C)c1 |  | IC50 |  |  |  | <0.0005 µM |
| CC(C)(NC(=O)[C@@H]1CCCN1C(=O)[C@@H](O)[C@H](Cc1ccccc1)NC(=O)[C@H](CC(N)=O)NC(=O)OCc1ccccc1)C(N)=O |  | IC50 |  |  |  | <5 µM |
| Cc1ccnc(C)c1OCC(=O)N[C@@H](Cc1ccccc1)[C@@H](O)C[C@H](Cc1ccccc1)NC(=O)[C@H](C(C)C)N1CCCNC1=O |  | IC50 |  |  |  | <0.0005 µM |
| COc1ccc2c(c1)OC1(CCN(Cc3ccccc3)CC1)C/C2=N\O |  | IC50 |  |  | absorbance | >10 µM |
| CC1(C)CC[C@]2(C(=O)O)CC[C@]3(C)C(=CC[C@@H]4[C@@]5(C)C[C@@H](OC(=O)c6ccccc6)[C@H](O)C(C)(C)[C@@H]5CC[C@]43C)[C@@H]2C1 |  | IC50 |  |  | FRET | >1200 µg/mL |
| CC[C@H](C)[C@H](NC(=O)[C@@H]1CCCN1C(=O)[C@H](O)[C@H](Cc1ccccc1)NC(=O)[C@H](CC(=O)O)NC(=O)[C@H](Cc1ccccc1)NC(=O)[C@@H](N)CO)C(=O)N[C@H](C(N)=O)C(C)C | pH 5.75 | IC50 |  |  | substrate cleavage | 0.1 µM |
| CC(C)(C)NC(=O)c1ccccc1C[C@@H](O)[C@H](Cc1ccccc1)NC(=O)[C@H](CCC(=O)O)NC(=O)c1ccc2ccccc2n1 |  | IC50 |  |  | fluorescence | 0.013 µg/mL |
| CC(C)(C)NC(=O)[C@H]1N(C(=O)[C@@H](O)[C@H](Cc2ccccc2)NC(=O)[C@H](CC(N)=O)NC(=O)COc2cccc(Nc3ccccc3)c2)CSC1(C)C |  | IC50 |  |  |  | <0.05 µM |
| CCCN1C(=O)N(CCC)N(C(=O)C(C)(C)C)C[C@@H](O)[C@H]1Cc1ccccc1 |  | IC50 |  |  | fluorescence | 0.0068 µM |
| CC(C)(C)NC(=O)[C@@H]1CCCN1C(=O)[C@@H](O)[C@H](CC1CCCCC1)NC(=O)[C@H](CC(N)=O)NC(=O)OCC1c2ccccc2-c2ccccc21 |  | IC50 |  |  |  | ~0.05 µM |
| CC(C)(CC(=O)O)CC(=O)O[C@H]1CC[C@]2(C)[C@H]3CC=C4[C@@H]5CC(C)(C)CC[C@]5(C(=O)OCc5ccccc5)CC[C@@]4(C)[C@]3(C)CC[C@H]2C1(C)C |  | IC50 |  |  | FRET | >1200 µg/mL |
| COc1ccc(C(O)C(C)Oc2ccc([C@H]3O[C@H](c4ccc(OC(C)C(O)c5ccc6c(c5)OCO6)c(OC)c4)[C@H](C)[C@H]3C)cc2OC)cc1OC |  | IC50 |  |  | HPLC | >125 µM |
| Cc1ccc(S(=O)(=O)NC(N)=NCCC[C@H](NC(=O)OCC2c3ccccc3-c3ccccc32)C(=O)OCCO)cc1 |  | IC50 |  |  | HPLC | 55 µM |
| CCN(/C=C1\C(=O)Nc2ccc(S(=O)(=O)N(CC(C)C)C[C@@H](O)[C@H](Cc3ccccc3)NC(=O)O[C@H]3CO[C@H]4OCC[C@H]43)cc21)CC |  | Ki |  | HXB2 | substrate cleavage | <0.0001 µM |
| COc1ccc2c(c1)/C(=N/O)CC1(CCN(Cc3ccccc3)CC1)O2 |  | IC50 |  |  | absorbance | >10 µM |
| Cc1ccc(S(=O)(=O)NC(N)=NCCC[C@H](NC(=O)CC23CC4CC(CC(C4)C2)C3)C(=O)O)cc1 |  | IC50 |  |  | HPLC | 54 µM |
| Cc1cccc(CO)c1OCC(=O)N[C@@H](Cc1ccccc1)C[C@H](O)[C@H](Cc1ccccc1)NC(=O)O[C@H]1CO[C@H]2OCC[C@H]21 |  | IC50 |  |  |  | <0.0005 µM |
| CCCC[C@@H](CN[C@@H](CCC(N)=O)C(=O)N[C@@H](CCCN=C(N)N)C(N)=O)NC(=O)[C@H](CCCC)NC(=O)C(NC(=O)C(NC(C)=O)[C@@H](C)O)[C@@H](C)CC |  | IC50 | PR-D30N |  | HPLC | >2.17 µM |
| Cc1cc(C)cc(OCC(=O)N[C@@H](Cc2ccccc2)[C@@H](O)C[C@H](Cc2ccccc2)NC(=O)[C@H](C(C)C)N2CCCNC2=O)c1 |  | IC50 |  |  |  | >0.0005 µM |
| CC(C)c1cccc2c(Cl)cc(C(=O)N[C@@H](CC(N)=O)C(=O)N[C@@H](Cc3ccccc3)[C@H](O)Cc3ccccc3C(=O)NC(C)(C)C)nc12 |  | IC50 |  |  | fluorescence | 0.001 µg/mL |
| CC1(C)CC[C@]2(C(=O)OCc3ccccc3)CC[C@]3(C)C(=CC[C@@H]4[C@@]5(C)CC[C@H](OC(=O)CCCC(=O)O)C(C)(C)[C@@H]5CC[C@]43C)[C@@H]2C1 |  | IC50 |  |  | FRET | >1200 µg/mL |
| Cc1ccc(S(=O)(=O)NC(N)=NCCC[C@H](NC(=O)OCC2c3ccccc3-c3ccccc32)C(=O)OCc2ccccc2)cc1 |  | IC50 |  |  | HPLC | 60 µM |
| CC(C)(C)OC(=O)NN(Cc1ccoc1)C[C@H](O)[C@H](Cc1ccccc1)NC(=O)OCc1ccccc1 |  | IC50 |  |  | substrate cleavage | 0.0038 µM |
| Cc1ccc(S(=O)(=O)NC(N)=NCCC[C@H](NC(=O)OCC2c3ccccc3-c3ccccc32)C(=O)O)cc1 |  | IC50 |  |  | HPLC | 5 µM |
| CC(C)(C)OC(=O)NN(CC1CCCCC1)C[C@H](O)[C@H](Cc1ccccc1)NC(=O)OCc1ccccc1 |  | IC50 |  |  | substrate cleavage | 0.038 µM |
| CC[C@H](C)[C@H](NC(=O)[C@@H]1CCCN1C(=O)[C@H](O)[C@H](Cc1ccccc1)NC(=O)[C@H](CO)NC(=O)CCc1ccccc1)C(=O)N[C@H](C(N)=O)C(C)C | pH 5.75 | IC50 |  |  | substrate cleavage | >10 µM |
| CC(C)[C@H](NC(=O)[C@H](Cc1cccc2ccccc12)NC(=O)CCN1CCOCC1)C(=O)N[C@@H](Cc1ccccc1)[C@H](O)C(=O)N1CSC[C@H]1C(=O)NC(C)(C)C |  | IC50 |  |  | fluorescence | 0.0011 µM |
| C[C@H](Cc1cc2c(cc1O)OCO2)[C@H](C)Cc1cc2c(cc1O)OCO2 |  | IC50 |  |  | HPLC | 5.6 µM |
| CC(C)(C)OC(=O)NN(Cc1ccc(Cl)cc1)C[C@H](O)[C@H](Cc1ccccc1)NC(=O)OCc1ccccc1 |  | IC50 |  |  | substrate cleavage | 0.016 µM |
| CC[C@H](C)[C@H](NC(=O)[C@@H]1CCCN1C(=O)[C@H](O)[C@H](Cc1ccccc1)NC(=O)[C@H](CO)NC(=O)Cc1ccccc1)C(=O)N[C@H](C(N)=O)C(C)C |  | IC50 |  |  |  | ~5 µM |
| Cc1ncnc(C)c1OCC(=O)N[C@@H](Cc1ccccc1)[C@@H](O)C[C@H](Cc1ccccc1)NC(=O)[C@H](C(C)C)N1CCCNC1=O |  | IC50 |  |  |  | <0.0005 µM |
| CCC(=O)O[C@H]1CC[C@]2(C)[C@H]3CC=C4[C@@H]5CC(C)(C)CC[C@]5(C(=O)OCc5ccccc5)CC[C@@]4(C)[C@]3(C)CC[C@H]2C1(C)C |  | IC50 |  |  | FRET | >1200 µg/mL |
| CC(C)(C)NC(=O)c1ccccc1C[C@@H](O)[C@H](Cc1ccccc1)NC(=O)[C@H](CC(N)=O)NC(=O)c1ccc2cc(Cl)ccc2n1 |  | IC50 |  |  | fluorescence | 0.081 µg/mL |
| Cc1cc(N)cc(C)c1S(=O)(=O)CC(=O)N[C@@H](Cc1ccccc1)C[C@H](O)[C@H](Cc1ccccc1)NC(=O)O[C@H]1CO[C@H]2OCC[C@H]21 |  | IC50 |  |  |  | 0.012 µM |
| COc1ccc2c(c1)OC1(CCN2)CCN(Cc2ccccc2)CC1 |  | IC50 |  |  | absorbance | >10 µM |
| CC(C)(C)OC(=O)NN(C[C@H](O)[C@H](Cc1ccccc1)NC(=O)OCc1ccccc1)CN1C=CSC1 |  | IC50 |  |  | substrate cleavage | 0.035 µM |
| Cc1ccc(N)c(C)c1OCC(=O)N[C@@H](Cc1ccccc1)C[C@H](O)[C@H](Cc1ccccc1)NC(=O)O[C@H]1CO[C@H]2OCC[C@H]21 |  | IC50 |  |  |  | <0.0005 µM |
| CC[C@H](C)[C@H](NC(=O)[C@@H]1CCCN1C(=O)[C@H](O)[C@H](CC1CCCCC1)NC(=O)[C@H](CC(N)=O)NC(=O)CCc1ccccc1)C(=O)N[C@H](C(N)=O)C(C)C | pH 5.75 | IC50 |  |  | substrate cleavage | >10 µM |
| c1ccc(COc2ccc3c(c2)NCCC2(CCN(Cc4ccccc4)CC2)O3)cc1 |  | IC50 |  |  | absorbance | >10 µM |
| CC(C)(C)NC(=O)c1ccccc1C[C@@H](O)[C@H](Cc1ccccc1)NC(=O)[C@H](CC(=O)O)NC(=O)c1ccc2ccccc2n1 |  | IC50 |  |  | fluorescence | 0.013 µg/mL |
| CC1(C)CC[C@]2(C(=O)O)CC[C@]3(C)C(=CC[C@@H]4[C@@]5(C)C[C@@H](OC(=O)c6ccccc6)[C@H](OC(=O)c6ccccc6)C(C)(C)[C@@H]5CC[C@]43C)[C@@H]2C1 |  | IC50 |  |  | FRET | >1200 µg/mL |
| CNc1cc(C)c(OCC(=O)N[C@@H](Cc2ccccc2)C[C@H](O)[C@H](Cc2ccccc2)NC(=O)OC2CO[C@H]3OCC[C@@H]23)c(C)c1 |  | IC50 |  |  |  | <0.0005 µM |
| CC1(C)CC[C@]2(C(=O)OCc3ccccc3)CC[C@]3(C)C(=CC[C@@H]4[C@@]5(C)C[C@@H](O)[C@H](O)C(C)(C)[C@@H]5CC[C@]43C)[C@@H]2C1 |  | IC50 |  |  | FRET | >1200 µg/mL |
| NC(=NCCC[C@H](NC(=O)OCC1c2ccccc2-c2ccccc21)C(=O)O)NS(=O)(=O)c1ccccc1 |  | IC50 |  |  | HPLC | 25 µM |
| COc1ccccc1CN(C[C@H](O)[C@H](Cc1ccccc1)NC(=O)OCc1ccccc1)NC(=O)OC(C)(C)C |  | IC50 |  |  | substrate cleavage | 0.013 µM |
| CC1(C)CC[C@]2(C(=O)OCc3ccccc3)CC[C@]3(C)C(=CC[C@@H]4[C@@]5(C)C[C@@H](OC(=O)c6ccccc6)[C@H](OC(=O)c6ccccc6)C(C)(C)[C@@H]5CC[C@]43C)[C@@H]2C1 |  | IC50 |  |  | FRET | >1200 µg/mL |

A second listing of 5 rows from above:

| compound | conditions | read-out | changes | strain or isolate | method | value |
|---|---|---|---|---|---|---|
| COc1ccc2c(c1)OC1(CCN(Cc3ccccc3)CC1)C/C2=N\O |  | IC50 |  |  | absorbance | >10 µM |
| CC[C@H](C)[C@H](NC(=O)[C@@H]1CCCN1C(=O)[C@H](O)[C@H](Cc1ccccc1)NC(=O)[C@H](CC(=O)O)NC(=O)[C@H](Cc1ccccc1)NC(=O)[C@@H](N)CO)C(=O)N[C@H](C(N)=O)C(C)C | pH 5.75 | IC50 |  |  | substrate cleavage | 0.1 µM |
| Cc1cccc(C)c1SCC(=O)N[C@@H](Cc1ccccc1)[C@@H](O)C[C@H](Cc1ccccc1)NC(=O)[C@H](C(C)C)N1CCCNC1=O |  | IC50 |  |  |  | <0.0005 µM |
| COc1ccc2c(c1)OC1(CCN2)CCN(Cc2ccccc2)CC1 |  | IC50 |  |  | absorbance | >10 µM |
| NC(=NCCC[C@H](NC(=O)OCC1c2ccccc2-c2ccccc21)C(=O)O)NS(=O)(=O)c1ccccc1 |  | IC50 |  |  | HPLC | 25 µM |